Measured values from several laboratories, pooled; numbers as filed in NIAID ChemDB.

Shared fields: growth or infection tests; agent: Human cytomegalovirus; cells: HFF; read-out: EC50

Rows are shuffled and stem from different studies.

smiles | strain | method | value
Cn1cc(C(=O)NCc2ccc(Cl)cc2)c(=O)c2cc(CN3CCOCC3)ccc21 | Coffman | plaque count | 5 µM
Nc1nc2c(ncn2COC(CO)CO)c(=O)[nH]1 | D10 (BDCRB- and maribavir-resistant) | plaque count | 12.7 µM
Nc1nc(NC2CC2)c2ncn(C=C3CC3CO)c2n1 | TOWNE | plaque count | 10.6 µM
OC[C@H]1O[C@@H](n2c(Br)nc3cc(Cl)c(Cl)cc32)[C@H](O)[C@@H]1O | C4 (BDCRB-resistant) | virus yield | <23 µM
O[C@@H]1[C@H](O)[C@H](O)CO[C@H]1n1c(Br)nc2cc(Cl)c(Cl)cc21 | 1117R (drug-resistant) | plaque count | 3.5 µM
O[C@@H]1[C@H](O)CO[C@H]1n1c(Cl)nc2cc(Cl)c(Cl)cc21 | TOWNE | virus yield | <0.46 µM
Nc1nc2c(ncn2/C=C2/CC2(CO)CO)c(=O)[nH]1 | AD169 | plaque count | 1.3 µM
Nc1ncnc2c1ncn2/C=C1/C[C@@H]1CO | AD169 | plaque count | 1.9 µM
OC[C@H]1O[C@@H](n2c(Br)nc3cc(Cl)c(Cl)cc32)[C@H](O)[C@@H]1O | C8708/17-1-1 | plaque count | 0.7 µM
Nc1nc2c(ncn2COC(CO)CO)c(=O)[nH]1 | Isolate C4 mutations D344E + Q204R | plaque count | 5.5 µM
Nc1nc(N)c2ncn(C=C3CC3CO)c2n1 | AD169 | cytopathic effect | 11.2 µM
CCCCCCCC/C=C\CCCCCCCCOCCOP(=O)(O)CO[C@H](CO)Cn1ccc(N)nc1=O | Coffman | plaque count | 0.01 µM
Nc1nc2c(ncn2C=C2CC2CO)c(=O)[nH]1 | C8805/37-1-1 | plaque count | 48.9 µM
Nc1ccn(C=C2C[C@H]2CO)c(=O)n1 | RCdelta97 | plaque count | 75 µM
CCCCCCCCCCCCCCCCCCOC[C@H](COP(=O)(O)CO[C@H](CO)Cn1ccc(N)nc1=O)OCc1ccccc1 | VR4760 (foscarnet-resistant) | plaque count | 0.001 µM
O=C(NCc1ccc(Cl)cc1)c1cn2c3c(cc(CN4CCOCC4)cc3c1=O)OC(c1cccnc1)C2 | C8706/13-1-1 (ganciclovir-resistant) | plaque count | 1.1 µM
Nc1ccn(C[C@@H](CO)OCP(=O)(O)O)c(=O)n1 | VR4955 (foscarnet-resistant) | plaque count | 0.95 µM
CN(C)c1cccc2c(S(=O)(=O)Nc3ccc(NC(=O)C(C)(C)CO)cc3)cccc12 | C4 (BDCRB-resistant) | plaque count | 2.1 µM
CCCCCCCCCCCCOCCCOP(=O)(O)CO[C@H](CO)Cn1ccc(N)nc1=O | C8914-6 | plaque count | 0.2 µM
OC[C@H]1O[C@@H](n2c(Br)nc3cc(Cl)c(Cl)cc32)[C@H](O)[C@@H]1O | AD169 | virus yield | 0.36 µM
Nc1nc2c(ncn2COC(CO)CO)c(=O)[nH]1 | C8805/37-1-1 (drug-resistant) | plaque count | 100 µM
CCCCCCCCCCCCCCCCOP(=O)(O)CO[C@H](CO)Cn1ccc(N)nc1=O | 1117-R | plaque count | 0.01 µM
OC[C@H]1O[C@@H](n2c(Cl)nc3cc(Cl)c(Cl)cc32)[C@H](O)[C@@H]1O | Isolate B11 mutation D344E | plaque count | 16 µM
CCCCCCCC/C=C\CCCCCCCOCCCOP(=O)(O)CO[C@H](CO)Cn1ccc(N)nc1=O | DAVIS | plaque count | 0.002 µM
C[C@@H]1O[C@@H](n2c(Cl)nc3cc(Cl)c(Cl)cc32)[C@H](O)[C@@H]1O | R56 (BDCRB- maribavir-resistant) | plaque count | 0.81 µM

The first 2 rows once more:

smiles,strain,method,value
Cn1cc(C(=O)NCc2ccc(Cl)cc2)c(=O)c2cc(CN3CCOCC3)ccc21,Coffman,plaque count,5 µM
Nc1nc2c(ncn2COC(CO)CO)c(=O)[nH]1,D10 (BDCRB- and maribavir-resistant),plaque count,12.7 µM

ECn is the concentration giving n% inhibition of infection, replication or growth.